A mixed list of measured activities; the numbers were collected in NIAID ChemDB.

All rows: tests on isolated targets; organism: Plasmodium falciparum

Blank or dashed fields: not listed here. Lines come from different laboratories, so protocols vary. ICn is the concentration giving n% inhibition.

{"structure": "O=C(N[C@@H](Cc1ccccc1)C(=O)N[C@H](/C=C/S(=O)(=O)c1ccccc1)CCc1ccccc1)C1CCC2(CC1)OOC1(OO2)C2CC3CC(C2)CC1C3", "target": "Falcipain-2", "read-out": "IC50", "method": "fluorescence", "result": "9.784 µM"}
{"structure": "CCOP(=O)(CCC(=O)Nc1cccc(OC)c1)OCC", "target": "PfDXR", "read-out": "IC50", "method": "absorbance", "result": ">500 µM"}
{"structure": "C=C1C(=O)C[C@@H]2/C=C(/COC(C)=O)CC/C=C(/C=O)C[C@@H](OC(=O)C(C)CC)[C@@H]12", "target": "Lactate dehydrogenase", "strain or isolate": "3D7", "read-out": "IC50", "result": "1.2 µg/mL"}
{"structure": "CCCCNOCC1=C(Nc2ccc3ccccc3c2)SCC1=O", "target": "Dihydroorotate dehydrogenase", "read-out": "IC50", "result": ">50 µM"}
{"structure": "COc1cc(OC)c(C=C2SC(=O)N(CC(=O)N3CCN(C4CCCCC4)CC3)C2=O)c(OC)c1", "target": "Falcipain-2", "read-out": "IC50", "method": "fluorescence", "result": ">50 µM"}
{"structure": "O=C1C(=O)c2ccccc2C(O)=C1C1CCC(c2ccc(Cl)cc2)CC1", "target": "Glutathione reductase", "read-out": "IC50", "result": ">25 µM"}
{"structure": "CC(C)C[C@H](NC(=O)C1CCC2(CC1)OOC1(OO2)C2CC3CC(C2)CC1C3)C(=O)N[C@H](/C=C/S(=O)(=O)c1ccccc1)Cc1ccccc1", "target": "Falcipain-2", "read-out": "IC50", "method": "fluorescence", "result": "8.093 µM"}
{"structure": "CC(=O)N(O)CCCP(=O)(O)O", "target": "PfDXR", "read-out": "Ki", "method": "absorbance", "result": "0.0026 µM"}
{"structure": "Cc1ccc(NC2=C(ON)C(=O)CS2)cc1C", "target": "Dihydroorotate dehydrogenase", "read-out": "IC50", "result": ">50 µM"}
{"structure": "CC(C)C[C@H](NC1CCC2(CC1)OOC1(OO2)C2CC3CC(C2)CC1C3)C(=O)N[C@H](/C=C/S(=O)(=O)c1ccccc1)CCc1ccccc1", "target": "Falcipain-2", "read-out": "IC50", "method": "fluorescence", "result": "10.5 µM"}
{"structure": "O=C1C(c2ccc(-c3ccc(Cl)cc3)cc2)=C(C(F)(F)F)C(=O)c2ccccc21", "target": "Glutathione reductase", "read-out": "IC50", "result": ">25 µM"}
{"structure": "O=C(CCC(c1ccccc1)P(=O)(O)O)NO", "target": "PfDXR", "read-out": "IC50", "method": "absorbance", "result": "0.0116 µM"}
{"structure": "CCOP(=O)(CC(=O)Nc1cccc(OC)c1)OCC", "target": "PfDXR", "read-out": "IC50", "method": "absorbance", "result": ">500 µM"}
{"structure": "COc1cccc(C=C2SC(=O)N(CC(=O)N3CCN(c4ccccc4)CC3)C2=O)c1", "target": "Falcipain-2", "read-out": "IC50", "method": "fluorescence", "result": ">50 µM"}
{"structure": "CCOC(=O)C1=C(O)CSC1=Nc1cccc(C(F)(F)F)c1", "target": "Dihydroorotate dehydrogenase", "read-out": "IC50", "result": ">50 µM"}
{"structure": "COc1cc(OC)c(C=C2SC(=O)N(Cc3ccc(C)cc3)C2=O)c(OC)c1", "target": "Falcipain-2", "read-out": "IC50", "method": "fluorescence", "result": "43.35 µM"}
{"structure": "O=C1C=C(C(F)(F)F)C(=O)c2ccccc21", "target": "Glutathione reductase", "read-out": "IC50", "result": "7 µM"}
{"structure": "Cc1cccc(C=C2SC(=O)N(CC(=O)N3CCN(c4ccccc4)CC3)C2=O)c1", "target": "Falcipain-2", "read-out": "IC50", "method": "fluorescence", "result": "45.33 µM"}
{"structure": "CC1(C)OC(=O)C(=Cc2ccccc2[N+](=O)[O-])C(=O)O1", "target": "Histidine-rich protein 2", "read-out": "IC50", "method": "ELISA", "result": "36.63 µM"}
{"structure": "COc1cc(OC)c(C=C2SC(=O)N(CC(=O)N3CCN(C)CC3)C2=O)c(OC)c1", "target": "Falcipain-2", "read-out": "IC50", "method": "fluorescence", "result": ">50 µM"}
{"structure": "CCCNOCC1=C(Nc2ccc3ccccc3c2)SCC1=O", "target": "Dihydroorotate dehydrogenase", "read-out": "IC50", "result": ">50 µM"}
{"structure": "CC(C)C[C@H](NC(=O)[C@@H]1O[C@H]1C(=O)O)C(=O)NCCCCN=C(N)N", "target": "Falcipain-2", "read-out": "IC50", "method": "fluorescence", "result": "0.047 µM"}
{"structure": "CC(C)C[C@H](NC(=O)CC1CCC2(CC1)OOC1(OO2)C2CC3CC(C2)CC1C3)C(=O)N[C@H](/C=C/S(=O)(=O)c1ccccc1)CCc1ccccc1", "target": "Falcipain-2", "read-out": "IC50", "method": "fluorescence", "result": "8.739 µM"}
{"structure": "COc1cc(OC)c(C=C2SC(=O)N(C34CC5CC(CC(C5)C3)C4)C2=O)c(OC)c1", "target": "Falcipain-2", "read-out": "IC50", "method": "fluorescence", "result": "29.08 µM"}
{"structure": "O=C1C=C(CF)C(=O)c2ccccc21", "target": "Glutathione reductase", "read-out": "IC50", "result": "27.5 µM"}

2 of the rows above, restated:

structure	target	strain or isolate	read-out	method	result
O=C1C(=O)c2ccccc2C(O)=C1C1CCC(c2ccc(Cl)cc2)CC1	Glutathione reductase	-	IC50	-	>25 µM
CC(C)C[C@H](NC(=O)[C@@H]1O[C@H]1C(=O)O)C(=O)NCCCCN=C(N)N	Falcipain-2	-	IC50	fluorescence	0.047 µM